A mixed list of measured activities; the numbers were collected in NIAID ChemDB.

Shared fields: growth or infection tests; species: Hepatitis C virus; endpoint: EC50

Rows are shuffled and stem from different studies.

SMILES,changes,setting,read by,cells,strain,result
C[C@@H](NC(=O)OCc1ccccc1)C(=O)Nc1ccc(C2SC(=Nc3ccc(F)c(Cl)c3)N(Cc3ccco3)C2=O)cc1,-,-,replicon,Huh7,-,1–5 µM
CCOc1nc(NCc2ccc(F)cc2)nc2ccc(-c3ccc(C(=O)NC(C)(C)CN4CCOCC4)cc3)nc12,-,-,replicon,-,-,<0.1 µM
CNC(=O)c1c(-c2ccc(F)cc2)oc2cc(N3CCOCC3)c(OCc3ccccc3)cc12,-,-,replicon,Huh7,-,<1 µM
O=C(N[C@@H](C(=O)N1CCC[C@H]1c1ncc(-c2ccc(-c3ccc(-c4cnc([C@@H]5CCCN5C(=O)[C@H](NC(=O)C5CC5)c5ccccc5)s4)cc3)cc2)s1)c1ccccc1)C1CC1,Y93N,-,luciferase / reporter gene,Huh7.5,genotype 1b,0.003821 µM
N#Cc1c(Nc2ccc(F)cc2)s[nH]c1=O,-,-,replicon,Huh7,-,10–50 µM
COc1ccc(N2CCN(c3nc(N)nc4ncc(-c5ccc(OC)c(OC)c5)nc34)CC2)cc1,-,-,replicon,Huh7,HCV replicon,0.3–1 µM
O=C(O)c1ccc2c(C3CCCCC3)c3n(c2c1)C(=O)NCc1ccccc1-3,-,-,replicon,Huh7,-,>10 µM
COc1ccc(N=C2SC(c3ccc(NC(=O)[C@H]4CCCN4C(=O)OCc4ccccc4)cc3)C(=O)N2Cc2ccco2)cn1,-,-,replicon,Huh7,-,0.1–1 µM
O=C(Cc1cccc2occc12)N/N=C/c1ccccc1OS(=O)(=O)c1ccc(C(F)(F)F)cc1,-,-,replicon,Huh7,-,5–50 µM
CNC(=O)c1c(-c2ccc(F)cc2)oc2cc(-c3noc(C)n3)c(OC(C)C)cc12,-,-,replicon,Huh7,-,<1 µM
COc1ccc(-c2cnc3nc(N)nc(N4CCN(S(=O)(=O)c5ccccc5)CC4)c3n2)cc1OC,-,-,replicon,Huh7,HCV replicon,<0.3 µM
O=C(Cc1ccccc1)N/N=C/c1ccccc1OS(=O)(=O)c1ccc(F)cc1Cl,-,-,replicon,Huh7,-,5–50 µM
Cc1c(C(=O)O)sc2ccc(NC(=O)C3(NC(=O)c4ccc5c(c4)nc(-c4ccoc4)n5C4CCCCC4)CCCC3)cc12,-,-,-,Huh7,-,≤5 µM
COC(=O)c1ccc2c(C3CCCCC3)c3n(c2c1)CC(C(=O)N1CCOCC1)=C(C)c1ccccc1-3,-,-,replicon,Huh7,-,1–10 µM
CNC(=O)c1c(-c2ccc(F)cc2)oc2cc(-c3cc(C)no3)c(OC(C)C)cc12,-,-,replicon,Huh7,-,<30 µM
COc1ccc(-c2cnc3nc(N)nc(N4CCN(Cc5ccccn5)CC4)c3n2)cc1OC,-,-,replicon,Huh7,HCV replicon,0.3–1 µM
O=C(Cc1cccc(Cl)c1)N/N=C/c1ccccc1OS(=O)(=O)c1ccc(C(F)(F)F)cc1,-,-,replicon,Huh7,-,<5 µM
CC(C)N(C(=O)c1ccc(Cl)cc1F)c1cc(-c2ccc(-c3cn4ccccc4n3)cc2)sc1C(=O)O,-,-,replicon / ELISA,-,1b,0.1–0.5 µM
O=C(O)c1ccc2c(C3CCCCC3)c3n(c2c1)CC=Cc1cc(OCc2ccccc2)ccc1-3,-,-,replicon,Huh7,-,0.01–1 µM
C[C@@H](NC(=O)C(c1ccccc1)c1ccccc1)C(=O)Nc1ccc(C2SC(=Nc3ccc(N4CCOCC4)cc3)N(Cc3ccccn3)C2=O)cc1,-,-,replicon,Huh7,-,<0.1 µM
Cc1ccc(C(=O)N(c2cc(-c3ccc(-c4cc5ncccn5n4)cc3)sc2C(=O)O)C(C)C)c(C)c1,-,-,replicon / ELISA,-,1a,0.1–0.5 µM
O=C(O)c1ccc2c(C3CCCCC3)c3n(c2c1)C(O)c1ccccc1-3,-,-,replicon,Huh7,-,>10 µM
CCOc1nc(NCCc2ccccc2)nc2ccc(-c3ccc(F)cc3)nc12,-,-,replicon,-,-,<0.1 µM
CC(C)N(C(=O)c1ccc(Cl)cc1Cl)c1cc(-c2ccc(-c3cc4ncccc4o3)cc2)sc1C(=O)O,-,-,replicon / ELISA,-,1a,0.05–0.1 µM
COc1ccc(-c2cnc3nc(N)nc(N4CCN(Cc5cccc(C)c5)CC4)c3n2)cc1OC,-,-,replicon,Huh7,HCV replicon,<0.3 µM
CC(C)(C)OC(=O)NC1CCN(S(=O)(=O)c2cc(-c3ccc4nc(NCc5ccc(S(N)(=O)=O)cc5)nc(NCC(F)(F)F)c4n3)ccc2Cl)CC1,-,-,replicon,-,-,<0.1 µM
C[C@@H]1CCCC[C@H]1n1c(-c2ccoc2)nc2cc(C(=O)NC3(C(=O)Nc4ccc(/C=C/C(=O)O)cc4)CCCC3)ccc21,-,-,-,Huh7,-,≤5 µM
CN1CCCC1CCNC(=O)c1ccc(-c2ccc3nc(N)nc(O[C@H]4CCOC4)c3n2)cc1,-,-,replicon,Huh7,-,>1 µM
O=C(N/N=C/c1ccccc1OS(=O)(=O)c1ccc(C(F)(F)F)cc1)C1CCCCC1,-,-,replicon,Huh7,-,5–50 µM
N#Cc1c(NCCc2ccc(O)cc2)s[nH]c1=O,-,-,replicon,Huh7,-,>50 µM
CCOc1nc(N)nc2c1ncn2[C@@H]1O[C@@H]2COP(=O)(OC(C)C)O[C@H]2[C@@]1(C)F,-,31 d,replicon,-,2a,0.42 µM
CNC(=O)c1c(-c2ccc(F)cc2)oc2cc(-c3ccc(S(C)(=O)=O)cc3)c(OC(C)C)cc12,-,-,replicon,Huh7,-,<10 µM
O=C(O)c1ccc(-c2cnc(NC(=O)C3(NC(=O)c4ccc5c(C6CCCCC6)c6n(c5c4)CC=Cc4ccccc4-6)CCCC3)s2)cc1,-,-,replicon,Huh7,-,0.01–1 µM
O=C(Nc1ccc(C2SC(=Nc3ccc(N4CCOCC4)cc3)N(Cc3ccccn3)C2=O)cc1)[C@H]1C[C@H](O)CN1C(=O)OCc1ccccc1,-,-,replicon,Huh7,-,0.1–1 µM
Cc1noc(C)c1-c1ccc2nc(NCc3ccc(S(N)(=O)=O)cc3)nc(NCC(F)(F)F)c2n1,-,-,replicon,-,-,<0.1 µM
O=C(O)c1ccc2c(C3CCCCC3)c3n(c2c1)CC(C(=O)N1CCN(c2ccncc2)CC1)=Cc1ccccc1-3,-,-,replicon,Huh7,-,0.01–1 µM
C=Cc1cc2oc(-c3ccc(F)cc3)c(C(=O)NC)c2cc1OC(C)C,-,-,replicon,Huh7,-,<10 µM
COc1ccc(-c2cnc3nc(N)nc(N4CCN(CCc5ccccc5)CC4)c3n2)cc1OC,-,-,replicon,Huh7,HCV replicon,<0.3 µM
COc1cccc(CC(=O)N/N=C/c2c(F)cccc2OS(=O)(=O)c2ccc(C)cc2)c1,-,-,replicon,Huh7,-,5–50 µM
Cc1cccc(C)c1Sc1ccc(Nc2s[nH]c(=O)c2C#N)cc1,-,-,replicon,Huh7,-,1–10 µM
COc1ccc2[nH]cc(CC(=O)N/N=C/c3ccccc3OS(=O)(=O)c3ccc(C(F)(F)F)cc3)c2c1,-,-,replicon,Huh7,-,5–50 µM
COc1ccc(OC(=O)N2CCN(c3nc(N)nc4ncc(-c5ccc(OC)c(OC)c5)nc34)CC2)cc1,-,-,replicon,Huh7,HCV replicon,<0.3 µM
COC(=O)c1ccc2c(C3CCCCC3)c3n(c2c1)CC(C(=O)N1CCCOCC1)=Cc1ccccc1-3,-,-,replicon,Huh7,-,1–10 µM
O=C(O)/C=C/c1ccc(NC(=O)C2(NC(=O)c3ccc4c(c3)nc(-c3ccc[nH]3)n4C3CCCCC3)CCCC2)cc1,-,-,-,Huh7,-,≤5 µM
CNC(=O)c1c(-c2ccc(F)cc2)oc2cc(N(CC3(CO)CC3)S(C)(=O)=O)c(OCC3(CO)CC3)cc12,-,-,replicon,Huh7,-,<1 µM
CCOc1nc(NCc2ccc(F)cc2)nc2ccc(-c3ccc(CO)o3)nc12,-,-,replicon,-,-,<0.1 µM
COc1ccc(-c2cnc3nc(N)nc(N4CCN(C(=O)N5CCCC5)CC4)c3n2)cc1OC,-,-,replicon,Huh7,HCV replicon,<0.3 µM
CNC(=O)c1c(-c2ccc(F)cc2)oc2ccc(OC)cc12,-,-,replicon,Huh7,-,<10 µM
Cc1ccc(S(=O)(=O)Cc2ccccc2/C=N/NC(=O)Cc2ccccc2)cc1,-,-,replicon,Huh7,-,<5 µM
N#Cc1c(Nc2ccc(C(F)(F)F)cc2)s[nH]c1=O,-,-,replicon,Huh7,-,1–10 µM
CS(=O)(=O)C1CCN(c2nc(NCc3ccc(F)cc3)nc3ccc(-c4ccc(F)cc4)nc23)C1,-,-,replicon,-,-,<0.1 µM
O=C(N/N=C/c1ccccc1OS(=O)(=O)c1ccc(C(F)(F)F)cc1)c1ccc(Cl)cc1Cl,-,-,replicon,Huh7,-,<5 µM
COC(=O)c1cccc(Nc2s[nH]c(=O)c2C#N)c1,-,-,replicon,Huh7,-,>50 µM
NC(=O)c1ccc(-c2ccc3nc(NCc4ccc(S(N)(=O)=O)cc4)nc(C4CC4)c3n2)cc1,-,-,replicon,-,-,<0.1 µM
C[C@@H](NC(=O)OCc1ccccc1)C(=O)Nc1ccc(C2SC(=Nc3cccnc3)N(Cc3cccc(F)c3)C2=O)cc1,-,-,replicon,Huh7,-,<0.1 µM
COc1cccc(CC(=O)N/N=C/c2ccccc2OS(=O)(=O)c2ccc(Oc3ccccc3)cc2)c1,-,-,replicon,Huh7,-,>50 µM
COc1ccc(-c2cnc3nc(N)nc(N4CCN(C(=O)COc5ccccc5)CC4)c3n2)cc1OC,-,-,replicon,Huh7,HCV replicon,<0.3 µM
CC(NC(=O)c1ccc2c(c1)nc(-c1ccoc1)n2C1CCCCC1)C(=O)Nc1ccc(C(=O)O)cc1,-,-,-,Huh7,-,5–50 µM
CC(C)N(C(=O)c1ccc(Cl)cc1Cl)c1cc(-c2ccc(-c3nn[nH]n3)cc2)sc1C(=O)O,-,-,luciferase / replicon,-,1b,>5 µM
CN1CC[C@H](C(=O)Nc2ccc(-c3ccc4nc(NCc5ccc(S(N)(=O)=O)cc5)nc(NCC(F)(F)F)c4n3)cc2)C1,-,-,replicon,-,-,<0.1 µM
COC(=O)c1ccc2c(C3CCCCC3)c3n(c2c1)C/C(=N/O)Cc1ccccc1-3,-,-,replicon,Huh7,-,0.01–1 µM
CC(C)N(C(=O)c1ccc(Cl)cc1Cl)c1cc(-c2ccc(-c3cc4ncccn4n3)cc2)sc1C(=O)O,-,-,luciferase / replicon,-,1a,0.01–0.05 µM

7 of the rows above, restated:

{"SMILES": "COc1ccc(-c2cnc3nc(N)nc(N4CCN(Cc5ccccn5)CC4)c3n2)cc1OC", "read by": "replicon", "cells": "Huh7", "strain": "HCV replicon", "result": "0.3–1 µM"}
{"SMILES": "CNC(=O)c1c(-c2ccc(F)cc2)oc2cc(-c3cc(C)no3)c(OC(C)C)cc12", "read by": "replicon", "cells": "Huh7", "result": "<30 µM"}
{"SMILES": "O=C(O)/C=C/c1ccc(NC(=O)C2(NC(=O)c3ccc4c(c3)nc(-c3ccc[nH]3)n4C3CCCCC3)CCCC2)cc1", "cells": "Huh7", "result": "≤5 µM"}
{"SMILES": "C[C@@H]1CCCC[C@H]1n1c(-c2ccoc2)nc2cc(C(=O)NC3(C(=O)Nc4ccc(/C=C/C(=O)O)cc4)CCCC3)ccc21", "cells": "Huh7", "result": "≤5 µM"}
{"SMILES": "COc1ccc(-c2cnc3nc(N)nc(N4CCN(C(=O)N5CCCC5)CC4)c3n2)cc1OC", "read by": "replicon", "cells": "Huh7", "strain": "HCV replicon", "result": "<0.3 µM"}
{"SMILES": "COC(=O)c1ccc2c(C3CCCCC3)c3n(c2c1)CC(C(=O)N1CCOCC1)=C(C)c1ccccc1-3", "read by": "replicon", "cells": "Huh7", "result": "1–10 µM"}
{"SMILES": "COc1ccc(N2CCN(c3nc(N)nc4ncc(-c5ccc(OC)c(OC)c5)nc34)CC2)cc1", "read by": "replicon", "cells": "Huh7", "strain": "HCV replicon", "result": "0.3–1 µM"}

a–b is a range or a potency band. ECn is the concentration giving n% inhibition of infection, replication or growth. Blank or dashed fields: not listed here.